Compound potency records, mixed from different reports. Data source: NIAID ChemDB in PubChem.

Shared fields: tests in culture; organism: Herpes simplex virus 1; method: cytopathic effect; read-out: EC50

Neighbouring rows are from separate reports. An empty or dashed field is not shown. a–b is a range or a potency band. ECn: concentration that inhibits the pathogen or its effect by n%.

| smiles | strain | cell line | result |
|---|---|---|---|
| O=c1[nH]c(=O)n([C@H]2C[C@H](O)[C@@H](CO)O2)cc1/C=C/Br | - | HEP-2 | <0.01 µg/mL |
| Nc1nc2c(ncn2C[C@]2(CO)C[C@H]2CO)c(=O)[nH]1 | - | VERO | 0.01–0.1 µM |
| C[C@H]1[C@H](O)[C@@H](CO)O[C@H]1n1cc(Br)c(=O)[nH]c1=O | A4-3 | RPMI8226 | >60.4 µg/mL |
| O=c1[nH]c(=O)n([C@H]2C[C@H](O)[C@@H](CO)O2)cc1F | - | Primary rabbit kidney cells | 0.16 µM |
| CCCC#Cc1nc2c(N)ncnc2n1[C@H]1C[C@H](O)[C@@H](CO)O1 | B2006 (TK-) | ESM | 100 µg/mL |
| Cc1cn([C@H]2OC[C@@H](CO)C2F)c(=O)[nH]c1=O | KOS TK- acyclovir-resistant | E6SM | 240 µg/mL |
| S=c1[nH]nc(-c2cn(-c3ccccc3)nc2-c2ccccc2)o1 | KOS (TK-) | HEL | >16 µg/mL |
| OC[C@H]1O[C@@H](c2ccc(F)cc2F)C[C@@H]1O | KOS/ACV-R | E6SM | >400 µg/mL |
| Nc1nc2c(ncn2[C@@H]2C[C@H](CO)[C@H]2CO)c(=O)[nH]1 | - | VERO | 0.01–0.1 µM |
| NC1=NCCN1CC(=O)O | F | VERO | 8600 µM |
| Nc1nc2c(ncn2[C@H]2OC[C@@H](CO)C2O)c(=O)[nH]1 | KOS | E6SM | 1.9 µg/mL |
| CC(C1=NNC(=Nc2ccccc2)SC1)N1C(=O)c2cccc([N+](=O)[O-])c2C1=O | VR733 | VERO | 111 µg/mL |
| C[C@H]1[C@H](O)[C@@H](CO)O[C@H]1n1cc(I)c(N)nc1=O | Hangai | RPMI8226 | 0.32 µg/mL |
| [N-]=[N+]=N[C@H]1[C@@H](F)[C@H](N2C=CC(N)NC2=O)O[C@@H]1CO | KOS | PRK | >400 µg/mL |
| Cc1cn([C@@H]2O[C@H](CO)[C@@H](O)[C@@H]2O)c(=O)[nH]c1=O | VR-3 | HELF | 0.66 µg/mL |
| O=c1[nH]c(=O)n([C@@H]2O[C@H](CO)[C@@H](O)[C@@H]2F)cc1I | - | HEP-2 | <0.01 µg/mL |
| O=c1[nH]c(=O)n([C@H]2S[C@H](CO)[C@@H](O)[C@@H]2F)cc1F | VR | - | >27 µg/mL |
| N#Cc1cn(C2O[C@H](CO)[C@@H](O)[C@H]2O)c(=O)[nH]c1=O | - | Human skin fibroblasts | >700 µM |
| Nc1nccc2c1ncn2[C@@H]1C[C@H](CO)[C@@H](O)[C@H]1O | KOS | - | >400 µg/mL |
| Nc1nc(=O)n([C@@H]2O[C@H](CO)[C@@H](O)[C@@H]2F)cc1I | - | HEP-2 | <0.01 µg/mL |
| Nc1nc(Cl)nc2c1ncn2[C@H]1S[C@H](CO)[C@@H](O)[C@@H]1F | VR | - | >27 µg/mL |
| Nc1nc2c(ncn2CCC(CO)CO)c(=O)[nH]1 | - | VERO | 0.1–1 µM |
| NC1=NC2C(C=CN2CC(CO)CCO)C(=O)N1 | KOS | VERO | 3.3 µg/mL |
| O=c1[nH]c(=O)n([C@H]2C[C@H](O)[C@@H](CO)O2)cc1/C=C/Br | F | PRK | 0.017 µg/mL |
| OC[C@H]1O[C@H](c2cc(F)c(F)cc2F)C[C@@H]1O | F | E6SM | >400 µg/mL |
| CCCCC/C=C\c1nc2c(N)ncnc2n1[C@H]1C[C@H](O)[C@@H](CO)O1 | G | ESM | >40 µg/mL |
| O=[N+]([O-])c1cc([C@H]2C[C@H](O)[C@@H](CO)O2)c(F)cc1F | KOS | E6SM | >400 µg/mL |
| CC(C1=NNC(=NC2CCCCC2)SC1)N1C(=O)c2ccccc2C1=O | VR733 | VERO | >111 µg/mL |
| C[C@H]1[C@H](O)[C@@H](CO)O[C@H]1n1cc(I)c(=O)[nH]c1=O | A4-3 | RPMI8226 | >74.5 µg/mL |
| O=c1[nH]c(=O)n([C@H]2C[C@H](O)[C@@H](CO)O2)cc1F | VMW1837 (TK-) | PRK | 0.2 µg/mL |
| C#Cc1nc2c(N)ncnc2n1[C@H]1C[C@H](O)[C@@H](CO)O1 | KOS | ESM | >4 µg/mL |
| COc1ccc(N=C2NN=C(C(C)N3C(=O)c4ccccc4C3=O)CS2)cc1 | VR733 | VERO | 64.15 µg/mL |
| CC(C)CS[C@H]1C[C@@H](n2cnc3c(N)ncnc32)[C@H](O)[C@@H]1O | KOS | E6SM | 400 µg/mL |
| Nn1c(SCC(=O)O)nnc1-c1cn(-c2ccccc2)nc1-c1ccccc1 | KOS | HEL | >80 µg/mL |
| CO[C@H]1O[C@H](Cn2ccc(=O)[nH]c2=O)[C@H](O)[C@H]1OCc1ccccc1F | KOS | E6SM | 9.6 µg/mL |
| Cc1cc([C@@H]2C[C@H](O)[C@@H](CO)O2)c(Cl)cc1F | KOS/ACV-R | E6SM | >400 µg/mL |
| Nc1nc2c(ncn2COCCOP(=O)(O)O[C@@H]2[C@H](O)[C@@H](COP(=O)(O)O[C@@H]3[C@H](O)[C@@H](CO)O[C@H]3n3cnc4c(N)ncnc43)O[C@H]2n2cnc3c(N)ncnc32)c(=O)[nH]1 | VMW1837 (TK-) | PRK | >100 µg/mL |
| O=c1[nH]c(=O)n([C@H]2S[C@H](CO)[C@@H](O)[C@@H]2F)cc1CCO | VR | - | >27 µg/mL |
| Cc1cn([C@@H]2OC[C@H](CO)[C@H]2O)c(=O)[nH]c1=O | KOS | E6SM | 9.6 µg/mL |
| O=c1[nH]c(=O)n([C@H]2C[C@H](O)[C@@H](CO)O2)cc1C(F)(F)F | - | Primary rabbit kidney cells | 0.66 µM |
| N#CC1=CSc2nnc(-c3cn(-c4ccccc4)nc3-c3ccccc3)n2N=C1N | KOS | HEL | >80 µg/mL |
| Nc1ccn([C@@H]2O[C@H](CO)[C@@H](O)[C@@H]2O)c(=O)n1 | KOS | Primary rabbit kidney cells | 0.02 µg/mL |
| Cc1cn([C@H]2S[C@H](CO)[C@@H](O)[C@@H]2F)c(=O)[nH]c1=O | VR | - | >27 µg/mL |
| COc1ccccc1/C=C/c1cc(=O)oc2c1ccc1occ(-c3ccc(-c4ccccc4)cc3)c12 | - | - | 250 µg/mL |
| CCc1cn([C@@H]2S[C@H](CO)[C@@H](O)[C@@H]2F)c(=O)[nH]c1=O | VR | - | 0.012 µg/mL |
| CCc1cn([C@H]2C[C@H](O)[C@@H](CO)O2)c(=O)[nH]c1=O | KOS | Primary rabbit kidney cells | 1 µg/mL |
| C[C@H]1[C@H](O)[C@@H](CO)O[C@H]1n1cc(F)c(N)nc1=O | KOS | RPMI8226 | >66.9 µg/mL |
| Nc1ncnc2c1ncn2C[C@H](O)CO | KOS | HSF | 20 µg/mL |
| Nn1c(-c2cn(-c3ccccc3)nc2-c2ccccc2)n[nH]c1=S | KOS | HEL | >80 µg/mL |
| CCCCCCCc1nc2c(N)ncnc2n1[C@H]1C[C@H](O)[C@@H](CO)O1 | B2006 (TK-) | ESM | >40 µg/mL |